Pooled drug test results. Numbers come from NIAID ChemDB, via PubChem.

Common to all: whole-cell or culture tests; agent: HIV-1; read by: cytopathic effect / XTT; read-out: EC50

Blank or dashed fields: not listed here. Rows are shuffled and stem from different studies. ECn is the concentration giving n% inhibition of infection, replication or growth.

{"SMILES": "Fc1cccc(F)c1C1SCc2nc3ccccc3n21", "cell line": "CEM + CEM-SS", "strain": "UC781-R (RT-Y181C)", "changes": "RT-Y181C", "result": ">69 µM"}
{"SMILES": "Cc1ccnc2c1NC(=O)c1cccnc1N2C1CC1", "cell line": "CEM + CEM-SS", "strain": "NL4-3", "changes": "RT-L74V", "result": "0.02 µM"}
{"SMILES": "Nc1cc(O)c2cc(N=Nc3ccc(N=Nc4ccc(N=Nc5ccc6cc(S(=O)(=O)O)cc(S(=O)(=O)O)c6c5)c5ccccc45)c4cc(S(=O)(=O)O)ccc34)c(S(=O)(=O)O)cc2c1", "cell line": "CEM + CEM-SS", "strain": "RF", "result": "7 µM"}
{"SMILES": "O=S1(c2ccccc2)=NC(=S)Nc2ccccc21", "cell line": "CEM + CEM-SS", "strain": "IIIB", "result": "3.28 µM"}
{"SMILES": "CC1=C(C(=O)Nc2ccc(Cl)c(C(=O)OC(C)C)c2)SCCO1", "cell line": "CEM + CEM-SS", "strain": "IIIB", "result": "0.2 µM"}
{"SMILES": "Cc1cc(S(=O)(=O)Nc2nc(N)n(-c3ccccc3)n2)c(S)cc1Cl", "cell line": "CEM", "strain": "RF", "result": "126.6 µM"}
{"SMILES": "Cc1cn([C@@H]2O[C@H](CO[Si](C)(C)C(C)(C)C)C3(OS(=O)(=O)C=C3N)[C@H]2O[Si](C)(C)C(C)(C)C)c(=O)n(C)c1=O", "cell line": "CEM", "strain": "IIIB", "changes": "RT-K103N", "result": "0.22 µM"}
{"SMILES": "Nc1nc(NC2CC2)c2ncn([C@H]3C=C[C@@H](CO)C3)c2n1", "cell line": "MT-2", "strain": "Site-directed mutant", "changes": "RT-K65R", "result": "9.25 µM"}
{"SMILES": "Cc1cn([C@H]2C[C@H](N=[N+]=[N-])[C@@H](CO)O2)c(=O)[nH]c1=O", "cell line": "PBMC", "strain": "WEJO", "result": "0.02 µM"}
{"SMILES": "Cc1cn([C@H]2C[C@H](N=[N+]=[N-])[C@@H](CO)O2)c(=O)[nH]c1=O", "cell line": "PBMC", "strain": "WEJO (syncytium-inducing)", "result": "0.02 µM"}
{"SMILES": "CC1=NN(c2nc(N)nc(CSc3cc(Cl)c(C)cc3S(N)(=O)=O)n2)C(C)(C)C1", "cell line": "CEM", "strain": "RF", "result": ">75.3 µM"}
{"SMILES": "CCc1c(Sc2ccccn2)n(COCc2ccccc2)c(=O)[nH]c1=O", "cell line": "Macrophage", "strain": "IIIB", "result": "0.007 µM"}
{"SMILES": "Fc1cccc(F)c1C1SCc2nc3ccccc3n21", "cell line": "CEM + CEM-SS", "strain": "SK1", "result": "0.2 µM"}
{"SMILES": "C/C=C/CSc1cc(NC(=S)c2ccsc2C)ccc1Cl", "cell line": "CEM + CEM-SS", "strain": "NL4-3 (RT V106I)", "changes": "RT-V106I", "result": "0.7 µM"}
{"SMILES": "CC1=C(C(=O)Nc2ccc(Cl)c(C(=O)OC(C)C)c2)SCCO1", "cell line": "U-937", "strain": "IIIB", "result": "1.7 µM"}
{"SMILES": "Cc1cc(S(=O)(=O)Nc2nnc3c4ccccc4ccn23)c(S)cc1Cl", "cell line": "CEM", "strain": "RF", "result": "143.5 µM"}
{"SMILES": "Cc1cn([C@H]2C[C@H](N=[N+]=[N-])[C@@H](CO)O2)c(=O)[nH]c1=O", "strain": "IIIB", "result": "0.012 µM"}
{"SMILES": "Cc1ccc(Nc2nc(NS(=O)(=O)c3cc(C)c(Cl)cc3S)n(C)n2)cc1", "cell line": "CEM", "strain": "RF", "result": ">100 µM"}
{"SMILES": "Cc1cn([C@H]2C[C@H](N=[N+]=[N-])[C@@H](CO)O2)c(=O)[nH]c1=O", "cell line": "CEM + CEM-SS", "strain": "C", "result": "0.0002 µM"}
{"SMILES": "Cc1cn([C@H]2C[C@H](N=[N+]=[N-])[C@@H](CO)O2)c(=O)[nH]c1=O", "cell line": "CEM + CEM-SS", "strain": "LAV", "result": "0.002 µM"}
{"SMILES": "CC1=NN(c2nc(N)nc(C(C)Sc3cc(Cl)c(C)cc3S(N)(=O)=O)n2)C(C)(C)C1", "cell line": "CEM", "strain": "RF", "result": ">43.1 µM"}
{"SMILES": "O=S1(c2cccc(Cl)c2)=NC(=S)Nc2ccc(Cl)cc21", "cell line": "CEM + CEM-SS", "strain": "IIIB", "result": "0.63 µM"}
{"SMILES": "Nc1nc2c(ncn2[C@H]2CO[C@@H](CO)O2)c(=O)[nH]1", "cell line": "MT-2", "strain": "Site-directed mutant", "changes": "RT-Q151M", "result": "21.1 µM"}
{"SMILES": "Fc1cccc(F)c1[C@H]1SCc2nc3ccccc3n21", "cell line": "CEM", "strain": "IIIB", "changes": "RT-V106N", "result": "4.85 µM"}
{"SMILES": "Nc1nc(=O)n([C@@H]2CS[C@H](CO)O2)cc1F", "cell line": "MT-2", "strain": "Site-directed mutant", "changes": "RT-K65R H221Y", "result": "10.5 µM"}
{"SMILES": "Cc1cn([C@H]2C=C[C@@H](CO)O2)c(=O)[nH]c1=O", "cell line": "MT-2", "strain": "HXB2", "result": "3.1 µM"}
{"SMILES": "Cc1cc(S(=O)(=O)Nc2nnc3c(Cl)cc(C(F)(F)F)cn23)c(S)cc1Cl", "cell line": "CEM", "strain": "RF", "result": "46.4 µM"}
{"SMILES": "Cc1occc1C(=S)Nc1ccc(Cl)c(/C=N/OC(C)(C)C)c1", "cell line": "CEM + CEM-SS", "strain": "UC10-resistant (RT Y181C K101E)", "changes": "RT-Y181C K101E", "result": ">20 µM"}
{"SMILES": "Cc1cn([C@H]2C[C@H](N=[N+]=[N-])[C@@H](CO)O2)c(=O)[nH]c1=O", "cell line": "MT-2", "strain": "Site-directed mutant", "changes": "RT-Q151M", "result": "3.4 µM"}
{"SMILES": "CC(C)=CCN1Cc2cc(Cl)cc3[nH]c(=S)n(c23)C[C@@H]1C", "cell line": "CEM", "strain": "IIIB", "changes": "RT-D138K", "result": "0.16 µM"}
{"SMILES": "Cc1cn([C@H]2C=C[C@@H](CO)O2)c(=O)[nH]c1=O", "cell line": "MT-2", "strain": "Site-directed mutant", "changes": "RT-K65R Y115F", "result": "12.06 µM"}
{"SMILES": "Cc1cc(S(=O)(=O)Nc2nc(Nc3ccccc3)nn2C)c(S)cc1Cl", "cell line": "CEM", "strain": "RF", "result": ">149 µM"}
{"SMILES": "CCc1c(Sc2ccccn2)n(COCc2ccccc2)c(=O)[nH]c1=O", "cell line": "CEM + CEM-SS", "strain": "IIIB", "changes": "RT-L100I", "result": "0.3 µM"}
{"SMILES": "c1ccc2c(c1)sc1nccn12", "cell line": "U-937", "strain": "IIIB", "result": "0.59 µM"}
{"SMILES": "O=C1N(Cc2ccc(CO)cc2)[C@H](COc2ccccc2)[C@H](O)[C@@H](O)[C@@H](COc2ccccc2)N1Cc1ccc(CO)cc1", "cell line": "MT-4", "strain": "IIIB", "result": "0.07 µM"}
{"SMILES": "O=S1(c2ccccc2)=NC(=S)Nc2ccccc21", "cell line": "AA5", "strain": "IIIB", "result": "2.88 µM"}
{"SMILES": "CCc1c(C(=O)c2cc(C)cc(C)c2)n(CC2CC=CC2)c(=O)[nH]c1=O", "cell line": "PBMC", "strain": "CLADE D", "setting": "clinical isolate", "result": "0.0008 µM"}
{"SMILES": "CC1=NN(c2nc(N)nc(NS(=O)(=O)c3cc(C)c(Cl)cc3S)n2)C(C)(C)C1", "cell line": "CEM", "strain": "RF", "result": "116 µM"}

Repeating the final 5 entries:

SMILES	cell line	strain	setting	changes	result
c1ccc2c(c1)sc1nccn12	U-937	IIIB	-	-	0.59 µM
O=C1N(Cc2ccc(CO)cc2)[C@H](COc2ccccc2)[C@H](O)[C@@H](O)[C@@H](COc2ccccc2)N1Cc1ccc(CO)cc1	MT-4	IIIB	-	-	0.07 µM
O=S1(c2ccccc2)=NC(=S)Nc2ccccc21	AA5	IIIB	-	-	2.88 µM
CCc1c(C(=O)c2cc(C)cc(C)c2)n(CC2CC=CC2)c(=O)[nH]c1=O	PBMC	CLADE D	clinical isolate	-	0.0008 µM
CC1=NN(c2nc(N)nc(NS(=O)(=O)c3cc(C)c(Cl)cc3S)n2)C(C)(C)C1	CEM	RF	-	-	116 µM